Pooled drug test results. Numbers come from NIAID ChemDB, via PubChem.

Common to all: growth or infection tests; agent: Candida albicans; measure: MIC90

Blank or dashed fields: not listed here. Lines come from different laboratories, so protocols vary. A number after MIC or MFC names an inhibition level or a share of isolates.

SMILES,strain,read by,setting,result
CC(N1CCN(c2ccc(-n3cnn(Cc4ccc(C(F)(F)F)cc4)c3=O)cc2F)CC1)C(O)(Cn1cncn1)c1ccc(F)cc1F,51 strains (fluconazole-susceptible),-,-,0.09 µg/mL
OC(Cn1cncn1)(Cn1cncn1)c1ccc(F)cc1F,Isolate M27-T-micro,-,48 h,≥100 µg/mL
c1ccc(-c2ccc(C(c3ccccc3)n3ccnc3)cc2)cc1,16 strains,-,-,16 µg/mL
CC(N1CCN(c2ccc(-n3cnn(Cc4ccc(OC(F)(F)F)cc4)c3=O)cc2F)CC1)C(O)(Cn1cncn1)c1ccc(F)cc1F,51 strains (fluconazole-susceptible),-,-,0.09 µg/mL
CCC(C)n1ncn(-c2ccc(N3CCN(c4ccc(OC[C@H]5CO[C@](Cn6cncn6)(c6ccc(Cl)cc6Cl)O5)cc4)CC3)cc2)c1=O,13 isolates fluconazole-resistant,-,-,>16 µg/mL
C=CCc1ccc(OC)c(OC)c1,ATCC 44829,turbidity,-,345 µg/mL
Fc1ccc(COc2ccc(C(c3cccc4ccccc34)n3ccnc3)cc2)cc1.O=[N+]([O-])O,16 strains,-,-,≥256 µg/mL
C=CCSS(=O)CC=C,Clinical Isolate 2605,broth dilution,-,6.25 µg/mL
Nc1[nH]c(=O)ncc1F,10 isolates azole-resistant,-,-,0.64 µg/mL
Nc1[nH]c(=O)ncc1F,19 strains,-,-,0.5 µg/mL
CCC(C)n1ncn(-c2ccc(N3CCN(c4ccc(OC[C@H]5CO[C@](Cn6cncn6)(c6ccc(Cl)cc6Cl)O5)cc4)CC3)cc2)c1=O,37 isolates,-,-,0.0313 µg/mL
COc1ccc(C(Cc2ccc(Cl)cc2)n2ccnc2)cc1,34 strains,-,-,32 µg/mL
Fc1ccc(COc2ccc(C(c3ccc(-c4ccccc4)cc3)n3ccnc3)cc2)c(F)c1.O=[N+]([O-])O,16 strains,-,-,≥256 µg/mL
COc1ccc(C(Cc2cccc(Cl)c2)n2ccnc2)cc1,34 strains,-,-,128 µg/mL
c1ccc(Cc2ccc(C(c3nccc4ccccc34)n3ccnc3)cc2)cc1,44 strains,-,-,32 µg/mL
COc1ccc(C(c2ccc3ccccc3c2)n2ccnc2)cc1,23 strains,-,-,64 µg/mL
CCCCCOc1ccc(-c2ccc(-c3ccc(C(=O)N[C@H]4C[C@@H](O)[C@@H](O)NC(=O)[C@@H]5[C@@H](O)[C@@H](C)CN5C(=O)[C@H]([C@H](C)O)NC(=O)[C@H]([C@H](O)[C@@H](O)c5ccc(O)cc5)NC(=O)[C@@H]5C[C@@H](O)CN5C(=O)[C@H]([C@H](C)O)NC4=O)cc3)cc2)cc1,10 strains (fluconazole-resistant),-,-,0.25 µg/mL
CCC(C)CC(C)CCCCCCCCC(=O)N[C@H]1C[C@@H](O)[C@@H](OCCN)NC(=O)[C@@H]2[C@@H](O)CCN2C(=O)[C@H]([C@@H](O)CCN)NC(=O)[C@H]([C@H](O)[C@@H](O)c2ccc(O)cc2)NC(=O)[C@@H]2C[C@@H](O)CN2C(=O)[C@H]([C@H](C)O)NC1=O,Fluconazole-susceptible,-,-,0.06 µg/mL
COc1ccc(C(c2cccc3ccccc23)n2ccnc2)cc1,23 strains,-,-,128 µg/mL
COc1ccc(C(Cc2ccccc2Cl)n2ccnc2)cc1,34 strains,-,-,256 µg/mL
Cc1ccc(C(c2ccc3ccccc3c2)n2ccnc2)cc1,23 strains,-,-,8 µg/mL
Fc1ccc(C(c2nccc3ccccc23)n2ccnc2)cc1.O=[N+]([O-])O,44 strains,-,-,256 µg/mL
CC[C@@H]([C@H](C)O)n1ncn(-c2ccc(N3CCN(c4ccc(OC[C@@H]5CO[C@@](Cn6cncn6)(c6ccc(F)cc6F)C5)cc4)CC3)cc2)c1=O,19 strains (fluconazole-susceptible),-,-,0.25 µg/mL
Clc1ccccc1C(c1ccccc1)(c1ccccc1)n1ccnc1,16 strains,-,-,1 µg/mL
COc1ccc([C@@H](Cc2ccc(Cl)cc2Cl)n2ccnc2)cc1,34 strains,-,-,16 µg/mL
CC(=O)OCC1C=C(c2ccc(Cl)c(Cl)c2)C(=O)O1,9 isolates fluconazole-resistant,-,-,2 µg/mL
Cc1ccc(C(c2cccc3ccccc23)n2ccnc2)cc1,23 strains,-,-,32 µg/mL
Cc1ccc(C(c2nccc3ccccc23)n2ccnc2)cc1,44 strains,-,-,256 µg/mL
COc1ccc(C(Cc2ccc(N)cc2)n2ccnc2)cc1,34 strains,-,-,16 µg/mL
Clc1ccc(C(c2cccc3ccccc23)n2ccnc2)cc1,23 strains,-,-,4 µg/mL
Clc1ccccc1COc1ccc(C(c2ccc3ccccc3c2)n2ccnc2)cc1.O=[N+]([O-])O,16 strains,-,-,≥256 µg/mL
CCC(C)n1ncn(-c2ccc(N3CCN(c4ccc(OC[C@H]5CO[C@](Cn6cncn6)(c6ccc(Cl)cc6Cl)O5)cc4)CC3)cc2)c1=O,40 isolates azole-susceptible,-,-,0.1 µg/mL
C[C@H]1[C@H](O)[C@@H](C)/C=C/C=C/C=C/C=C/C=C/C=C/C=C/[C@H](O[C@@H]2O[C@H](C)[C@@H](O)[C@H](N)[C@@H]2O)C[C@@H]2O[C@](O)(C[C@@H](O)C[C@@H](O)CC[C@H](O)[C@@H](O)C[C@@H](O)CC(=O)O[C@H]1C)C[C@H](O)[C@H]2C(=O)O,25 isolates,-,-,0.25 µg/mL
Fc1ccc(C(c2ccc3ccccc3c2)n2ccnc2)cc1,23 strains,-,-,8 µg/mL

4 of the rows above, restated:

SMILES	strain	read by	setting	result
Fc1ccc(C(c2nccc3ccccc23)n2ccnc2)cc1.O=[N+]([O-])O	44 strains	-	-	256 µg/mL
C=CCSS(=O)CC=C	Clinical Isolate 2605	broth dilution	-	6.25 µg/mL
CC(=O)OCC1C=C(c2ccc(Cl)c(Cl)c2)C(=O)O1	9 isolates fluconazole-resistant	-	-	2 µg/mL
CC(N1CCN(c2ccc(-n3cnn(Cc4ccc(OC(F)(F)F)cc4)c3=O)cc2F)CC1)C(O)(Cn1cncn1)c1ccc(F)cc1F	51 strains (fluconazole-susceptible)	-	-	0.09 µg/mL